Compound potency records, mixed from different reports. Data source: NIAID ChemDB in PubChem.

All rows: whole-cell or culture tests; organism: Rhinovirus

Lines come from different laboratories, so protocols vary. Blank or dashed fields: not listed here. ECn is the concentration giving n% inhibition of infection, replication or growth. a–b is a range or a potency band.

compound,cell line,method,strain,read-out,result
O=c1c2ccccc2ccc2ccccc12,HELA-H1,cytopathic effect,TYPE 16,EC50,10 µM
CC(C)S(=O)(=O)n1c(N)nc2ccc(/C(=N/O)c3ccccc3)cc21,HeLa,plaque count,Serotype 72,EC50,0.03 µg/mL
Cc1cccc(N2CCN(c3ccc(Br)nn3)CC2)c1,HeLa,cytopathic effect,TYPE 2,EC50,0.0078 µg/mL
CCO/N=C/c1ccc(OCCC2CCN(c3ccc(C)nn3)CC2)cc1,KB,neutral red,1-CV15 (ICAM-1 receptor group 11),EC50,0.003 µM
CC(C)S(=O)(=O)n1c(N)nc2ccc(/C(=N/O)c3ccccc3)cc21,HeLa,cytopathic effect,TYPE 9,EC50,0.03–0.06 µg/mL
CO/N=C/c1ccc(OCCC2CCN(c3ccc(Cl)nn3)CC2)c(C)c1,KB,cytopathic effect / visual reading,TYPE 1A,EC50,<0.003 µg/mL
O=C(O)Cc1csc(/N=C2\SCC3Cc4ccccc4CN23)n1,,,TYPE 3,MIC,3 µg/mL
OC1c2ccccc2C=Cc2ccccc21,HELA-H1,cytopathic effect,TYPE 16,EC50,50 µM
CCOC(=O)/C=C/[C@H](CCC(N)=O)NC(=O)[C@H](Cc1ccc(F)cc1)NC(=O)[C@H](CC(C)C)NC(=O)OCc1ccccc1,,,,EC50,0.54 µM
Cc1ccc(C)c(CN2CCN(c3nc(C(=O)O)cs3)CC2)c1,HeLa,cytopathic effect,TYPE 9,EC50,>1 µg/mL
O=Cc1ccc(OCCC2CCN(c3ccc(Cl)nn3)CC2)cc1,KB,cytopathic effect / visual reading,TYPE 1A,EC50,12.06 µg/mL
CCOc1cc(O)c(C(=O)/C=C/c2ccc(OC)cc2)c(OC)c1,HeLa,cytopathic effect,TYPE 2,EC50,0.001–0.002 µg/mL
C#CC[C@@H](C(=O)N[C@H](/C=C/C(=O)OCC)C[C@@H]1CCNC1=O)n1cccc(NC(=O)c2cc(C)on2)c1=O,H1-HELA,cytopathic effect / XTT,Clinical isolate T (serotype 16),EC50,0.079 µM
Nc1ncnc2c1ncn2[C@@H]1C[C@@H](O)[C@H](CO)O1,KB,,TYPE 5,EC50,>100 µM
Nc1ccn([C@@H]2C[C@@H](O)[C@H](CO)O2)c(=O)n1,KB,,TYPE 5,EC50,>100 µM
COc1cc(O)c(CC=C(C)C)c(O)c1C(=O)/C=C/c1ccc(O)cc1,VERO,cytopathic effect,TYPE 14,EC50,>2.2 µg/mL
Cc1c(C)c2c(c(C)c1O)CCC(C)(C(=O)O)O2,HeLa,,,EC50,<31 µM
C#CC[C@H](CC(=O)c1ccc(-c2ccccc2C)[nH]1)C(=O)N[C@H](/C=C/C(=O)OCC)C[C@@H]1CCNC1=O,H1-HELA,XTT,Serotype 14,EC50,0.124 µM
N=C(N)CCNC(=O)[C@H]1CCC(N)=N1,,,TYPE 2,MIC,3 µg/mL
Nc1nccc2c1ncn2[C@@H]1C[C@H](CO)[C@@H](O)[C@H]1O,WI-38,cytopathic effect,TYPE 1A,EC50,>100 µg/mL
CCO/N=C/c1ccc(OCCC2CCN(c3ccc(C)nn3)CC2)cc1,MRC-5,cytopathic effect / visual reading,TYPE 14,EC50,0.0009–0.0018 µg/mL
CC(=O)N[C@@H](CS)C(=O)O,HeLa,cytopathic effect,,EC50,>50 µM
CCOc1cc(O)c(C(=O)NCc2ccc(NC)cc2)c(OC)c1,HeLa,cytopathic effect,TYPE 2,EC50,0.006 µg/mL

The last 2 rows once more:

CC(=O)N[C@@H](CS)C(=O)O ; cell line: HeLa ; method: cytopathic effect ; read-out: EC50 ; result: >50 µM
CCOc1cc(O)c(C(=O)NCc2ccc(NC)cc2)c(OC)c1 ; cell line: HeLa ; method: cytopathic effect ; strain: TYPE 2 ; read-out: EC50 ; result: 0.006 µg/mL